Compound potency records, mixed from different reports. Data source: NIAID ChemDB in PubChem.

Common to all: tests in culture

Fold resistance: result on the changed form divided by that on wild type. MIC50, MIC90 and the like: level of inhibition, or share of isolates inhibited. ECn is the concentration giving n% inhibition of infection, replication or growth. a–b is a range or a potency band. Rows are shuffled and stem from different studies. Blank or dashed fields: not listed here. Zone: diameter of growth inhibition. Percent inhibition refers to the dose given; in toxicity tests it is the harm to the cells.

SMILES | changes | dose | strain | read-out | cells | read by | organism | value
CCCCCCCCCC(=O)N[C@H]1[C@H](Oc2c3cc4cc2Oc2ccc(cc2Cl)[C@@H](O[C@@H]2O[C@H](CO)[C@@H](O)[C@H](O)[C@H]2NC(C)=O)[C@@H]2NC(=O)[C@H](NC(=O)[C@@H]4NC(=O)[C@H]4NC(=O)[C@@H](Cc5ccc(c(Cl)c5)O3)NC(=O)[C@H](N)c3ccc(O)c(c3)Oc3cc(O)cc4c3)c3ccc(O)c(c3)-c3c(O[C@H]4O[C@H](CO)[C@@H](O)[C@H](O)[C@@H]4O)cc(O)cc3[C@H](C(=O)O)NC2=O)O[C@H](CO)[C@@H](O)[C@@H]1O |  |  | 25 strains (methicillin-susceptible) | MIC50 |  |  | Staphylococcus aureus | 0.5 µg/mL
CCOc1ccc(OCC)c(NCc2cnc3nc(N)nc(N)c3c2C)c1 |  | 1 µg/mL |  | inhibition | RK-13 |  | Encephalitozoon intestinalis | 68.3%
OC(Cn1cncn1)(Cn1cncn1)c1ccc(F)cc1F |  |  | YL 317 | MIC |  | broth dilution | Candida albicans | 256 µg/mL
N[C@@H]1CN(c2c(F)cc3c(=O)c(C(=O)O)cn([C@@H]4C[C@@H]4F)c3c2Cl)CC12CC2 |  |  | 25 strains (methicillin-susceptible) | MIC90 |  |  | Staphylococcus aureus | ≤0.12 µg/mL
C[C@H](Cc1ccc(O)c(O)c1)[C@@H](C)Cc1ccc(O)c(O)c1 |  |  | CCC 124-2000 | MIC100 |  | broth dilution | Candida parapsilosis | 250 µg/mL
Nc1nc2c(ncn2CCOCP(=O)(O)O)c(=O)[nH]1 |  |  | SF (TYPE 5) | EC90 |  | virus yield | Parainfluenza virus | 3 µg/mL
CC1COc2c(N3CCN(C)CC3)c(F)cc3c(=O)c(C(=O)O)cn1c23 |  |  | 30 strains | MIC50 |  |  | Streptococcus pneumoniae | 2 µg/mL
CCOC(=O)Nc1cc2[nH]c(=O)c(-c3ccccc3)nc2c(N)n1 |  | 1 µg/mL |  | inhibition | RK-13 |  | Encephalitozoon intestinalis | 61.4%
CC(C)(CO)C(=O)SCCOP(=O)(NCc1ccccc1)OC[C@H]1O[C@@H](n2cnc3c(=O)[nH]c(N)nc32)[C@](C)(O)[C@@H]1O | L31V |  | GT1b | fold resistance | Replicon cells | replicon | Hepatitis C virus | 0.92
CN[C@@H]1[C@H](O[C@H]2[C@H](O[C@H]3[C@H](O)[C@@H](O)[C@H](N=C(N)N)[C@@H](O)[C@@H]3N=C(N)N)O[C@@H](C)[C@]2(O)C=O)O[C@@H](CO)[C@H](O)[C@H]1O |  | 250 µg/disc |  | zone |  | agar diffusion | Staphylococcus epidermidis | 14 mm
CO[C@H]1/C=C/O[C@@]2(C)Oc3c(C)c(O)c4c(=O)c(c5oc6cc(N7CCN(CC(C)C)CC7)cc(=O)c6nc5c4c3=C2O)NC(=O)/C(C)=C\C=C\[C@H](C)[C@H](O)[C@@H](C)[C@@H](O)[C@@H](C)[C@H](OC(C)=O)[C@@H]1C |  |  | ATCC 25923 | MIC |  |  | Staphylococcus aureus | 0.0313 µg/mL
CCO/N=C/c1ccc(OCCC2CCN(c3ccc(C)nn3)CC2)cc1 |  |  | CH79 (ICAM-1 receptor group 38) | EC50 | KB | neutral red | Rhinovirus | 0.024 µM
CCOC(=O)Nc1cc2c(c(N)n1)N=C(c1cccc(OC)c1)CS2 |  | 0.1 µg/mL |  | inhibition | RK-13 |  | Encephalitozoon intestinalis | 31.9%
CC(=O)NC[C@H]1CN(c2ccc(N3CCOCC3)c(F)c2)C(=O)O1 |  |  | 24 strains (ofloxacin-susceptible) | MIC90 |  |  | Staphylococcus aureus | 2 µg/mL
CCOc1cc(Cc2cnc(N)nc2N)cc(OCC)c1-n1cccc1 |  |  | Isolate 94-886 | MIC |  |  | Mycobacterium ulcerans | 1 µg/mL
CC1(C)[C@@H](O[C@H]2O[C@H](C(=O)O)[C@@H](O)[C@H](O)[C@H]2O[C@@H]2O[C@H](C(=O)O)[C@@H](O)[C@H](O)[C@H]2O)CC[C@]2(C)[C@H]3C(=O)C=C4[C@@H]5C[C@@](C)(C(=O)O)CC[C@]5(C)CC[C@@]4(C)[C@]3(C)CC[C@@H]12 |  |  | E101 | EC90 | VERO | virus yield | West Nile virus | 625 µg/mL
Nc1ccn([C@@H]2C[C@H](CO)[C@@H](O)[C@H]2O)c(=O)n1 |  |  |  | EC50 | BHK-21 | cytopathic effect | Vesicular stomatitis virus | 2 µg/mL
C[C@H]1COc2c(N3CCN(C)CC3)c(F)cc3c(=O)c(C(=O)O)cn1c23 |  |  | 38 strains (ampicillin-susceptible) | MIC50 |  |  | Haemophilus influenzae | 0.015 µg/mL
Nc1ccn(C[C@@H](CO)OCP(=O)(O)O)c(=O)n1 |  |  | TRIM (TYPE 8) | EC50 |  | cytopathic effect | Adenovirus | 4 µg/mL
CCCSc1ccc2nc(NC(=O)OC)[nH]c2c1 |  | 10 µg/mL |  | inhibition | RK-13 |  | Encephalitozoon intestinalis | 88.2%
Cc1ccnc2c1NC(=O)c1cccnc1N2C1CC1 | RT-K70R K103N |  |  | EC95 | MT-4 |  | HIV-1 | 3 µM
CCOC(=O)Nc1cc2c(c(N)n1)N=C(c1ccc(N=[N+]=[N-])cc1)CO2 |  | 0.01 µg/mL |  | inhibition | RK-13 |  | Encephalitozoon intestinalis | 45.1%
COc1cc(Cc2cnc(N)nc2N)cc(OC)c1OCCCNc1ccc(S(=O)(=O)c2ccc(N)cc2)cc1 |  |  | Isolate 5155 | MIC |  |  | Mycobacterium ulcerans | 2 µg/mL
CO[C@H]1/C=C/O[C@@]2(C)Oc3c(C)c(O)c4c(O)c(c5c(c4c3C2=O)NC2(CCN(CC(C)C)CC2)N=5)=NC(=O)/C(C)=C\C=C\[C@H](C)[C@H](O)[C@@H](C)[C@@H](O)[C@@H](C)[C@H](OC(C)=O)[C@@H]1C |  |  | 20 strains (methicillin-resistant) | MIC90 |  |  | Staphylococcus aureus | 0.0625 µg/mL
CN(C)[C@@H]1C(=O)C(C(N)=O)=C(O)[C@@]2(O)C(=O)C3=C(O)c4c(O)c(NC(=O)CN5CCOCC5)cc(F)c4C[C@H]3C[C@@H]12 |  |  | 103-29212 | MIC |  | agar diffusion | Enterococcus faecalis | 8 µg/mL
COc1c(N2CCNC(C)C2)c(F)cc2c(=O)c(C(=O)O)cn(C3CC3)c12 |  |  | 25 strains (ofloxacin-resistant) | MIC90 |  |  | Staphylococcus aureus | 16 µg/mL
Nc1ncnc2c1ncn2C[C@H](CO)OCP(=O)(O)O |  |  | TAK (TYPE 41) | EC90 |  | virus yield | Adenovirus | 0.4 µg/mL
CC[C@H]1OC(=O)[C@H](C)[C@@H](O[C@H]2C[C@@](C)(OC)[C@@H](O)[C@H](C)O2)[C@H](C)[C@@H](O[C@@H]2O[C@H](C)C[C@H](N(C)C)[C@H]2O)[C@](C)(OC)C[C@@H](C)C(=O)[C@H](C)[C@@H](O)[C@]1(C)O |  |  | V60 | MIC |  | broth dilution | Mycobacterium massiliense | 0.125 µg/mL
C#CC[C@@H](C(=O)N[C@H](/C=C/C(=O)OCC)C[C@@H]1CCNC1=O)n1cccc(NC(=O)c2cc(C)on2)c1=O |  |  | Serotype 81 | EC50 | H1-HELA | cytopathic effect / XTT | Rhinovirus | 0.043 µM
CN(C)c1cc(NC(=O)CNC(C)(C)C)c(O)c2c1C[C@H]1C[C@H]3[C@H](N(C)C)C(=O)C(C(N)=O)=C(O)[C@@]3(O)C(=O)C1=C2O |  |  |  | MIC |  | broth dilution | Mycobacterium massiliense | 0.125–4 µg/mL
CO/N=C1\CN(c2nc3c(cc2F)c(=O)c(C(=O)O)cn3C2CC2)CC1CN |  |  | 25 strains (methicillin-susceptible) | MIC50 |  |  | Staphylococcus aureus | 0.06 µg/mL

Repeating the first 2 entries:

SMILES,changes,dose,strain,read-out,cells,read by,organism,value
CCCCCCCCCC(=O)N[C@H]1[C@H](Oc2c3cc4cc2Oc2ccc(cc2Cl)[C@@H](O[C@@H]2O[C@H](CO)[C@@H](O)[C@H](O)[C@H]2NC(C)=O)[C@@H]2NC(=O)[C@H](NC(=O)[C@@H]4NC(=O)[C@H]4NC(=O)[C@@H](Cc5ccc(c(Cl)c5)O3)NC(=O)[C@H](N)c3ccc(O)c(c3)Oc3cc(O)cc4c3)c3ccc(O)c(c3)-c3c(O[C@H]4O[C@H](CO)[C@@H](O)[C@H](O)[C@@H]4O)cc(O)cc3[C@H](C(=O)O)NC2=O)O[C@H](CO)[C@@H](O)[C@@H]1O,,,25 strains (methicillin-susceptible),MIC50,,,Staphylococcus aureus,0.5 µg/mL
CCOc1ccc(OCC)c(NCc2cnc3nc(N)nc(N)c3c2C)c1,,1 µg/mL,,inhibition,RK-13,,Encephalitozoon intestinalis,68.3%